Measured values published in patent US5693815A, “Peptides” (Schering Corporation, priority 1995, dated 1997).
pIC50: −log10 of the molar value.

Target: HIV1 protease (Human immunodeficiency virus type 1 group M subtype B, UniProt P04585)
Experiment: Inhibition of proteolytic activity of HIV-1 protease by scintillation proximity assay (SPA), Test 3
Type: biochemical
Conditions: read-out: SPA IC50, room temperature, 40 minutes
Description: TEST 3--INHIBITION OF PROTEOLYTIC ACTIVITY OF HIV-1-PROTEASE AS DETERMINED BY SCINTILLATION […] ASSAY (SPA)
This is an alternative assay to test #1 and is used to determine the ability of compounds to inhibit the HIV1 protease activity. The SPA assay for HIV1 protease has been developed by Amersham Corporation, Arlington Heights, Ill., and is available for commercial use. In this system the substrate for HIV1 protease, AcN-(I^125)Tyr-Arg-Ala-Arg-Val-Phe-Phe-Val-Arg-Ala-Ala-Lys-SPA bead, is cleaved by the HIV1 protease at the Phe-Phe bond releasing the I^125 -labelled peptide fragment from the SPA bead. This event causes removal of detectable signal from the microsphere bead indicated by reduction in radioactivity
(measured in CPM), which is proportional to the proteolytic activity. The substrate, and the HIV1 protease were incubated in presence of synthetic compound in various dilutions at room temperature for 40 minutes, and the concentration of the compound required to inhibit the proteolytic activity by 50% (IC50) was determined.

SMILES	pIC50
CC(C)(C)NC(=O)c1ccccc1OC[C@@H](N=[N+]=[N-])[C@H](Cc1ccccc1)NC(=O)[C@H](CC(N)=O)NC(=O)c1ccccn1	< 5.70
CC(C)(C)NC(=O)c1c(OC[C@H](N=[N+]=[N-])[C@H](Cc2ccccc2)NC(=O)[C@H](CC(N)=O)NC(=O)c2ccc3ccccc3n2)ccc2ccccc12	5.90
CC(C)(C)NC(=O)c1ccccc1OC[C@H](N)[C@H](Cc1ccccc1)NC(=O)[C@H](CC(N)=O)NC(=O)c1ccc2ccccc2n1	5.87
CC(C)(C)NC(=O)c1ccccc1OC[C@@H](N=[N+]=[N-])[C@H](Cc1ccccc1)NC(=O)[C@H](CC(N)=O)NC(=O)c1ccc2c(c1)C(=O)c1ccccc1C2=O	< 5.70
CC(C)(C)NC(=O)c1ccccc1OCC(O)(CO)[C@H](Cc1ccccc1)NC(=O)[C@H](CC(N)=O)NC(=O)c1ccc2ccccc2n1 (single isomer, unassigned) [W or X (isomer B)]	7.28
CC(C)(C)NC(=O)c1ccccc1OCC(NC=O)C(Cc1ccccc1)NC(=O)C(CC(N)=O)NC(=O)c1ccc2ccccc2n1 (stereo not shown)	6.55
CC(C)(C)NC(=O)c1ccccc1OCC(O)(CO)[C@H](Cc1ccccc1)NC(=O)[C@H](CC(N)=O)NC(=O)c1ccc2ccccc2n1 (single isomer, unassigned) [W or X (isomer A)]	7.15
CC(C)(C)NC(=O)c1ccccc1OC[C@@H](N=[N+]=[N-])[C@H](Cc1ccccc1)NC(=O)[C@H](CC(N)=O)NC(=O)c1ccc2ccccc2n1	5.76
CC(C)(C)NC(=O)c1ccccc1OCC(=O)[C@H](Cc1ccccc1)NC(=O)[C@H](CC(N)=O)NC(=O)c1ccc2ccccc2n1	6.44
CCC(C)[C@H](NC(=O)c1ccc2ccccc2n1)C(=O)N[C@@H](Cc1ccccc1)[C@H](COc1ccc2ccccc2c1C(=O)NC(C)(C)C)N=[N+]=[N-] (stereo partly shown)	< 5.70
CC(C)(C)NC(=O)c1ccccc1OC[C@@H](N)[C@H](Cc1ccccc1)NC(=O)[C@H](CC(N)=O)NC(=O)c1ccc2c(c1)C(=O)c1ccccc1C2=O	6.15
CC(C)(C)NC(=O)c1ccccc1OC[C@@H](N=[N+]=[N-])[C@H](Cc1ccccc1)NC(=O)[C@H](CC(N)=O)NC(=O)c1ccc(-c2ccccc2)cc1	< 5.70
CC(C)(C)NC(=O)c1ccccc1OC[C@@H](N=[N+]=[N-])[C@H](Cc1ccccc1)NC(=O)[C@H](CC(N)=O)NC(=O)c1cnnc2ccccc12	< 5.70
CC(C)(C)NC(=O)c1ccccc1OC[C@@H](N=[N+]=[N-])[C@H](Cc1ccccc1)NC(=O)[C@H](CC(N)=O)NC(=O)OC(C)(C)C	< 5.70
CC(C)(C)NC(=O)c1ccccc1OC[C@@H](N)[C@H](Cc1ccccc1)NC(=O)[C@H](CC(N)=O)NC(=O)OC(C)(C)C	< 5.70
CC(C)(C)NC(=O)c1ccccc1OC[C@@H](N=[N+]=[N-])[C@H](Cc1ccccc1)NC(=O)[C@H](CC(N)=O)NS(=O)(=O)c1ccc2ccccc2c1	< 5.70
CC(C)(C)NC(=O)c1ccccc1OC[C@@H](N)[C@H](Cc1ccccc1)NC(=O)[C@H](CC(N)=O)NC(=O)c1cnc2ccccc2n1	6.00
CC(=O)NC(COc1ccccc1C(=O)NC(C)(C)C)C(Cc1ccccc1)NC(=O)C(CC(N)=O)NC(=O)c1ccc2ccccc2n1 (stereo not shown)	< 5.70
CC(C)(C)NC(=O)c1c(OC[C@H](N)[C@H](Cc2ccccc2)NC(=O)[C@H](CC(N)=O)NC(=O)c2ccc3ccccc3n2)ccc2ccccc12	5.74
